Results from paper PMC4739419, “Mutations in the nucleotide binding and hydrolysis domains of Helicobacter pylori MutS2 lead to altered biochemical activities and inactivation of its in vivo function” (BMC Microbiology, 2016).
The exact form of at least one protein or probe is not confirmed. For some assays here: A weaker result is weaker than the reference pair of the same experiment. Where a protein sequence is shown, tags need not be part of it. For some assays here: At least one verdict was read from the data and is not stated in words by the source. Whether high values mean tight binding is not given here for every scale.

What was measured:
[1] = biological target: T1, HpMutS2 (Helicobacter pylori 26695) (UniProt O25338); assay: EMSA; conditions: EMSA: 0.16 nM DNA, buffer A (50 mM Tris pH 8.0, 50 mM NaCl, 1 mM DTT per Fig. S3 legend) with 0.1 ug/ul BSA, NaCl 110 mM, no divalent metal stated, 30 min on ice, recombinant protein, protein details: C-terminal His6, label: 5'-32P
T1 sequence (looked up, limits assumed): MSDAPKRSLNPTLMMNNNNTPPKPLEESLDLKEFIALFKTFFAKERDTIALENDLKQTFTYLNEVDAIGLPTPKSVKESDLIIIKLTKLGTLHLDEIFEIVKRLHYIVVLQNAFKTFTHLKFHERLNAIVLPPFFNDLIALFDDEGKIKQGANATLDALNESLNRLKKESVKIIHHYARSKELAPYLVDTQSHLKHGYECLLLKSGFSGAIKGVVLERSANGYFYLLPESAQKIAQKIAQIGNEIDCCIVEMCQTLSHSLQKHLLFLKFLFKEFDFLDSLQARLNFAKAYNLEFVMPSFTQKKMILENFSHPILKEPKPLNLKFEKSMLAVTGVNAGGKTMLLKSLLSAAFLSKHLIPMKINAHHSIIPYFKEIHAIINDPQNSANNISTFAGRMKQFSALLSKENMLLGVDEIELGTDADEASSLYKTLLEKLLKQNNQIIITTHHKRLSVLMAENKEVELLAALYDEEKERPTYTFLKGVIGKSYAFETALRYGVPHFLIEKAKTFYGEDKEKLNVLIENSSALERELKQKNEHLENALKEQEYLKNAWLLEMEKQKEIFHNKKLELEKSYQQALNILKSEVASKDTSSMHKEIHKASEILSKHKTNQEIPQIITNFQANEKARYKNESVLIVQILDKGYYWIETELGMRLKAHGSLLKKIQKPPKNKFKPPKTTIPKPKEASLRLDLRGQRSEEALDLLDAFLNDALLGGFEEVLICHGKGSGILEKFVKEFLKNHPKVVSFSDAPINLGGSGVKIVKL

[2] = biological target: T1, HpMutS2 (Helicobacter pylori 26695); assay: competition with a labelled probe; conditions: unlabelled ssDNA chase of preformed complex; EMSA: 0.16 nM DNA, buffer A (50 mM Tris pH 8.0, 50 mM NaCl, 1 mM DTT per Fig. S3 legend) with 0.1 ug/ul BSA, NaCl 110 mM, no divalent metal stated, 30 min on ice; recombinant protein; protein details: C-terminal His6; label: 5'-32P; single-stranded DNA
[3] = no nucleotide, folded or branched DNA

For “GACGCTGCCGAATTCTACCAGTGCCTTGCTAGGACATCTTTGCCCACCTGCAGGTTCACCC / GGGTGAACCTGCAGGTGGGCAAAGATGTCCATTAGTGGATCCTTAGCACCGTTGTAAGACG / CGTCTTACAACGGTGCTAAGGATGCACTAATCATGGAGCTGTCTAGAGGATCCGACTATCGAT / ATCGATAGTCGGATCCTCCAGACAGCTCCATGTAGCAAGGCACTGGTAGAATTCGGCAGCGTC [Holliday junction]”, the Kd ([1]; 1 mM ADP, folded or branched DNA) was 0.0226 µM, the Kd ([1]; 1 mM ATP, folded or branched DNA) was 0.0208 µM and the Kd ([1]; 1 mM ATPgS, folded or branched DNA) was 0.0225 µM. The Kd [1, 3] was 0.0144 µM.
With “ATCGATAGTCGGATCCTCCAGACAGCTCCATGTAGCAAGGCACTGGTAGAATTCGGCAGCGTC [ssDNA 63-mer (ODN4)]” the binding signal (% displaced by 500 nM) [2] was 70, the binding signal (fold lower than no nucleotide) ([1]; 1 mM ATP, Kd could not be determined, single-stranded DNA) was 5 and the binding signal (% dissociated) ([1]; preformed complex chased with 5 mM ATP, 37 C, single-stranded DNA) was 20.
“CCGCTACCAGTGATCACCAATGGATTGCTAGGACATCTTTGCCCACCTGCAGGTTCACCC / GGGTGAACCTGCAGGTGATGTTAGCCATGACCTGTGATCACTGGTAGCGG / TAAGACTGGACTCAGCTAGGTCATGGCTAACAT [D-loop]”: binds ([1]; 1 mM ATP, no significant change, folded or branched DNA); binds [1, 3].
“GACGCTGCCGAATTCTACCAGTGCCTTGCTACATGGAGCTGTCTGGAGGATCCGACTATCGAT (double strand) [dsDNA 63 bp (ODN0+ODN4)]”: binds more weakly ([1]; 1 mM ATP); binds ([1]; no nucleotide).
